Data as given in PubChem BioAssay AID1259414 (Drosophila RNAi Screening Center, 2018)

- Test: 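Genome-wide screen for host control of endosymbiont load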 (primary screen)
- Cells: Drosophila JW18 cells infected with Wolbachia
- Knock-down reagent: long dsRNA against Drosophila genes, 0.25 µg dsRNA per well of a 384-well plate
- Time to read-out: 5 days
- Conditions: cells persistently infected with Wolbachia before knock-down; no added drug
- Measured: 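Imaged fluorescence in situ signal for Wolbachia 23S rRNA per DAPI-counted host cell, given as a robust z-score within each plate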
- Reading the numbers: Wolbachia per cell robust z: higher = more Wolbachia per host cell than the plate typical
- Active means: 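Hit when robust z is 1.5 or more, or -1.5 or less, in at least two of three replicates; excludes dsRNAs with several or no targets, genes not expressed in JW18 and well A1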
The screen tested about 24,000 reagents; below is an unselected part of those that have a named target and a result. Of all reagents, about 1,210 (5%) were called active. 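Inactive calls also include excluded dsRNAs with several or no targets, genes unexpressed in JW18, and well A1, regardless of score.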 Reagent sequences are not shown.

gene	DRSC id	Wolbachia per cell robust z, rep 1	Wolbachia per cell robust z, rep 2	Wolbachia per cell robust z, rep 3	Call
CenB1A	DRSC16923	-0.68	0.731	-0.339	inactive
CenB1A	DRSC28028	2.8	2.15	1.27	active
CG18539	DRSC06766	-0.57	0.0973	-1.96	inactive
krz	DRSC16979	0.138	0.323	-2.08	inactive
senju	DRSC02366	0.131	-3.43	-3.25	active
CG11426	DRSC11658	-0.185	0.477	0.445	inactive
CG11426	DRSC27815	-0.26	1.15	1.69	inactive
Cog4	DRSC03057	1.05	0.356	1.41	inactive
Pka-R2	DRSC07509	-4.43	-2.27	-1.76	active
Pka-R2	DRSC29214	-0.706	-1.18	-0.354	inactive
CG34256	DRSC38833	-0.604	0.676	0.543	inactive
CG7639	DRSC07026	0.198	-3.23	-0.518	inactive
Hacd2	DRSC03181	-1.1	-5.91	-0.955	inactive
ND-51L2	DRSC07080	-3.68	-0.678	-0.0644	inactive
CG30271	DRSC04170	0.219	0.497	0.73	inactive
CG30271	DRSC30044	-0.579	0.458	-8.06	inactive
Glut4EF	DRSC14512	-1.85	-0.688	-1.01	inactive
Glut4EF	DRSC14541	-0.398	-0.497	-0.401	inactive
Glut4EF	DRSC14542	-1.56	-0.435	-0.595	inactive
Glut4EF	DRSC14543	-0.559	-1.31	0.243	inactive
Glut4EF	DRSC23038	-3.11	-0.353	-4.2	active
Glut4EF	DRSC28624	-0.713	1.2	0.726	inactive
Glut4EF	DRSC29228	-5.09	-0.0199	-1.5	inactive
Glut4EF	DRSC36546	-0.242	0.0359	-0.0461	inactive
Glut4EF	DRSC36547	-0.842	-2.9	-1.21	inactive
Glut4EF	DRSC36548	-0.247	0.609	-0.169	inactive
Glut4EF	DRSC36549	-0.505	0.868	-0.7	inactive
CG42561	DRSC05676	0.714	5.23	0.102	inactive
